A mixed list of measured activities; the numbers were collected in NIAID ChemDB.

Inhibition is in % at the dose shown (toxicity tests: loss of growth or viability).

SMILES | strain | target | cells | tested at | organism | kind | endpoint | method | result
CCOC(=O)C1C(C)NC(C)C(C(=O)OCC)C1OC(=O)c1ccccc1.Cl | H37Rv |  |  |  | Mycobacterium tuberculosis | culture | MIC |  | >100 µg/mL
C=CCc1ccc(O)c(OC)c1 | 105 |  |  |  | Candida tropicalis | culture | MIC90 | turbidity | 475 µg/mL
O=C(NC(=O)c1c(F)cccc1F)Nc1cc(Cl)c(OC(F)(F)C(F)C(F)(F)F)cc1Cl |  |  | RK-13 | 1.25 µg/mL | Vittaforma corneae | culture | inhibition |  | 36.9%
O=C(O)c1cc(S(=O)(=O)[O-])ccc1O |  |  | Human amnion AV3 cells | 10 µg/mL | Herpes simplex virus | culture | inhibition | cytopathic effect | 0%
CN(C)c1ccc(N)c(NS(C)(=O)=O)c1.O=S(=O)(O)O | H37Rv |  |  |  | Mycobacterium tuberculosis | culture | MIC |  | >100 µg/mL
COc1cccc(N2CCN(c3cncc(-c4ccc5ccccc5c4)n3)CC2)c1 |  | UL97 kinase |  |  | Cytomegalovirus | target | IC50 |  | <10 µM
CCN(CC)CCCC(C)Nc1c2ccc(Cl)cc2nc2ccc(OC)cc12 |  |  | RK-13 | 0.01 µg/mL | Encephalitozoon intestinalis | culture | inhibition |  | 0%
C#CC[C@@H](C(=O)N[C@H](/C=C/C(=O)OCC)C[C@@H]1CCNC1=O)n1cccc(NC(=O)c2cc(C)on2)c1=O | Clinical isolate 15 (serotype 23) |  | H1-HELA | 0.141 µM | Rhinovirus | culture | inhibition | cytopathic effect / XTT | 90%
CCO/N=C/c1ccc(OCCC2CCN(c3ccc(C)nn3)CC2)cc1 | 11757 (ICAM-1 receptor group 16) |  | KB |  | Rhinovirus | culture | EC50 | neutral red | 0.008 µM
O=C(/C=C/c1ccccc1)Nc1nnc(NCCCN2CCCC2=O)s1 |  | Polymerase |  |  | Human cytomegalovirus | target | IC50 |  | <25 µM
O=c1cc(-c2ccc(O)c(-c3c(O)cc4oc(-c5ccc(O)cc5)cc(=O)c4c3O)c2)oc2cc(O)cc(O)c12 | H37Rv |  |  |  | Mycobacterium tuberculosis | culture | EC50 |  | >12.5 µg/mL
COc1cccc(N2CCN(c3cncc(-c4cccc(C(C)=O)c4)n3)CC2)c1 |  | UL97 kinase |  |  | Cytomegalovirus | target | IC50 |  | <10 µM
O=C(Nc1ccc2c(O)c(N=Nc3ccc(N=Nc4ccc(S(=O)(=O)O)cc4)cc3)c(S(=O)(=O)O)cc2c1)c1ccccc1 |  |  | Human amnion AV3 cells | 10 µg/mL | Herpes simplex virus | culture | inhibition | cytopathic effect | 0%
CCOC(=O)/C=C/[C@H](C[C@@H]1CCNC1=O)NC(=O)[C@@H](CC(=O)[C@@H](NC(=O)c1cc(C)on1)C(C)C)Cc1ccc(F)cc1 | Isolate 33 |  | OHIO HELA-I |  | Rhinovirus | culture | EC50 | cytopathic effect / visual reading | 0.02 µg/mL
O=C(Nc1ncc([N+](=O)[O-])s1)c1ccccc1O |  |  | RK-13 | 0.001 µg/mL | Encephalitozoon intestinalis | culture | inhibition |  | 27.2%
CC1=NN(c2ccc(S(N)(=O)=O)cc2)C(=O)C1 | H37Rv |  |  |  | Mycobacterium tuberculosis | culture | MIC |  | >100 µg/mL
COc1ccccc1N1CCN(c2cncc(-c3ccc(C)cc3)n2)CC1 |  | UL97 kinase |  | 10 µM | Cytomegalovirus | target | inhibition |  | >15%
COc1ccc2cc3[n+](cc2c1OC)CCc1cc2c(cc1-3)OCO2 |  |  | RK-13 | 0.01 µg/mL | Encephalitozoon intestinalis | culture | inhibition |  | 41%
CCC(CC)O[C@@H]1C=C(C(=O)O)C[C@H](N)[C@H]1NC(C)=O | H1N1 A/TEXAS/36/91 |  | MDCK |  | Influenza A virus | culture | EC50 |  | 0.17 µM
CCCNC(C)C(=O)c1ccccc1 | H37Rv |  |  |  | Mycobacterium tuberculosis | culture | MIC |  | >100 µg/mL
Fc1ccc(N2CCCCC2)c(NC(=S)c2ccncc2)c1 |  | AMPK alpha2/beta1/gamma1 |  | 10 µM |  | host protein | inhibition | kinase activity | 3.7%
Nc1c(S(=O)(=O)O)cc2cc(S(=O)(=O)O)cc(O)c2c1O | TYPE 3 |  | Human embryonic lung cells | 5 µg/mL | Adenovirus | culture | inhibition | cytopathic effect | 65%
COc1ccc(C(=O)/C=C/c2cccnc2)cc1 |  |  |  | 12.5 µg/mL | Mycobacterium tuberculosis | culture | inhibition |  | 0%
Cc1ccccc1N=C(N)Nc1ccccc1C | H37Rv |  |  |  | Mycobacterium tuberculosis | culture | MIC |  | >100 µg/mL
NCCS(=O)(=O)O |  |  | Human amnion AV3 cells | 5 µg/mL | Herpes simplex virus | culture | inhibition | cytopathic effect | 0%
Cc1cc(C)cc(-c2cncc(N3CCN(c4ccc(Cl)c(Cl)c4)CC3)n2)c1 |  | UL97 kinase |  | 10 µM | Cytomegalovirus | target | inhibition |  | >15%
O=S(=O)(O)c1cc(O)c2c(O)cc(S(=O)(=O)O)cc2c1 |  |  | Human amnion AV3 cells | 5 µg/mL | Herpes simplex virus | culture | inhibition | cytopathic effect | 0%
COc1cc(OC)c2c(c1)OC(c1cc(OC)c(OC)c(OC)c1)C(Br)(Br)C2=O |  |  |  |  | Mycobacterium tuberculosis | culture | EC50 |  | >12.5 µg/mL
COc1cc(Cc2cc(Br)cc(OC)c2O)c(C(=O)O)c(OC)c1 | H37Rv |  |  |  | Mycobacterium tuberculosis | culture | MIC |  | >100 µg/mL
Cc1cccc(-c2cncc(N3CCN(c4ccccn4)CC3)n2)c1 |  | UL97 kinase |  | 10 µM | Cytomegalovirus | target | inhibition |  | >15%
COCc1cc(C)nc(N)n1 | H37Rv |  |  |  | Mycobacterium tuberculosis | culture | MIC |  | >100 µg/mL
CC1(C)C2CC[C@@H](CNc3nnc(NC(=O)c4cc5ccccc5s4)s3)C1C2 |  | Polymerase |  |  | Human cytomegalovirus | target | IC50 |  | >25 µM
COc1ccc(C2CC(=O)c3c(OC)cc(OC)cc3O2)cc1 | H37Rv |  |  |  | Mycobacterium tuberculosis | culture | EC50 |  | >12.5 µg/mL
N#Cc1ccc(C(=O)Nc2nnc(NC3CCCCCC3)s2)cc1 |  | Polymerase |  |  | Human cytomegalovirus | target | IC50 |  | <25 µM
O=C(/C=C/C(=O)OCc1ccccc1)OCc1ccccc1 | H37Rv |  |  |  | Mycobacterium tuberculosis | culture | MIC |  | >100 µg/mL
CC(=O)Oc1ccccc1C(=O)Nc1ncc([N+](=O)[O-])s1 |  |  | RK-13 | 1 µg/mL | Vittaforma corneae | culture | inhibition |  | 42.3%
Nc1nc(N)c(C(=O)SCc2ccccc2)nc1Cl | H37Rv |  |  | 12.5 µg/mL | Mycobacterium tuberculosis | culture | inhibition | BACTEC | 52%
COc1cc(C[C@H](C)[C@H](C)Cc2ccc(O)c(O)c2)ccc1O | CCC 131-2000 |  |  |  | Candida lusitaniae | culture | MIC50 | broth dilution | 62.5 µg/mL
NCc1ccccc1 | H37Rv |  |  |  | Mycobacterium tuberculosis | culture | MIC |  | 800 µg/mL
COc1cc(OC)cc(N(C)Cc2cnc3nc(N)nc(N)c3c2C)c1 |  |  | RK-13 | 1 µg/mL | Encephalitozoon intestinalis | culture | inhibition |  | 72.5%
COc1ccc(O)c(C(=O)/C=C/c2ccco2)c1 | H37Rv |  |  |  | Mycobacterium tuberculosis | culture | EC50 |  | >12.5 µg/mL
Nc1ccc2c(c1)S(=O)(=O)c1cc(N)ccc1-2 | H37Rv |  |  |  | Mycobacterium tuberculosis | culture | MIC |  | >100 µg/mL
CCOc1ccc2ccccc2c1C(=O)Nc1nnc(NCCCCc2ccccc2)s1 |  | Polymerase |  |  | Human cytomegalovirus | target | IC50 |  | >25 µM
CC(=O)c1ccc(NC(=O)CC(=O)Nc2ccc(C(C)=O)cc2)cc1 | H37Rv |  |  |  | Mycobacterium tuberculosis | culture | MIC |  | 100 µg/mL
Fc1ccccc1N1CCN(c2cncc(-c3cccc4ccccc34)n2)CC1 |  | UL97 kinase |  |  | Cytomegalovirus | target | IC50 |  | <100 µM
Nc1ccccc1/C=C/C(=O)c1cc(Br)ccc1O |  |  |  |  | Mycobacterium tuberculosis | culture | EC50 |  | >12.5 µg/mL
Nc1cc(S(=O)(=O)[O-])cc2cc(S(=O)(=O)[O-])ccc12 |  |  | Human amnion AV3 cells | 10 µg/mL | Herpes simplex virus | culture | inhibition | cytopathic effect | 0%
NS(=O)(=O)c1ccc(CCNc2nnc(NC(=O)c3ccc(Br)cc3)s2)cc1 |  | Polymerase |  |  | Human cytomegalovirus | target | IC50 |  | <25 µM
CC[C@]1(O)C[C@H]2CN(CCc3c([nH]c4ccccc34)[C@@](C(=O)OC)(c3cc4c(cc3OC)N(C)[C@H]3[C@@](O)(C(=O)OC)[C@H](OC(C)=O)[C@]5(CC)C=CCN6CC[C@]43[C@@H]65)C2)C1 |  |  | RK-13 | 0.1 µg/mL | Encephalitozoon intestinalis | culture | inhibition |  | 66.8%

For reference, 4 entries again:

SMILES,strain,target,cells,tested at,organism,kind,endpoint,method,result
COc1ccc(C(=O)/C=C/c2cccnc2)cc1,,,,12.5 µg/mL,Mycobacterium tuberculosis,culture,inhibition,,0%
O=C(/C=C/c1ccccc1)Nc1nnc(NCCCN2CCCC2=O)s1,,Polymerase,,,Human cytomegalovirus,target,IC50,,<25 µM
O=c1cc(-c2ccc(O)c(-c3c(O)cc4oc(-c5ccc(O)cc5)cc(=O)c4c3O)c2)oc2cc(O)cc(O)c12,H37Rv,,,,Mycobacterium tuberculosis,culture,EC50,,>12.5 µg/mL
C#CC[C@@H](C(=O)N[C@H](/C=C/C(=O)OCC)C[C@@H]1CCNC1=O)n1cccc(NC(=O)c2cc(C)on2)c1=O,Clinical isolate 15 (serotype 23),,H1-HELA,0.141 µM,Rhinovirus,culture,inhibition,cytopathic effect / XTT,90%

ICn: concentration for n% inhibition. Blank or dashed fields: not listed here. MIC50, MIC90 and the like: level of inhibition, or share of isolates inhibited. Rows are shuffled and stem from different studies. ECn: concentration that inhibits the pathogen or its effect by n%.